Anti-infective test results gathered from many reports (values: NIAID ChemDB through PubChem).

All rows: target-level tests; species: Hepatitis C virus; target: Nonstructural protein 5B

Conditions beyond the fields shown may differ between rows.

| structure | endpoint | dose | result |
|---|---|---|---|
| COc1ccc(CCC2(C3CCCC3)CC(O)=C(Sc3ncn[nH]3)C(=O)O2)cc1Cl | IC50 | - | <1 µM |
| CON1C(Nc2ccc3cn[nH]c3c2)=NC(NC(C)C)=NC1NC(C)C | inhibition | 1 µg/mL | 23% |
| O=C(O)C1=CCC(=CN2C(=O)C(=Cc3ccc(-c4cc(C(F)(F)F)ccc4Cl)o3)SC2=S)C=C1 | IC50 | - | ≤1 µM |
| CNC(=O)c1c(-c2ccccc2)oc2ccc(C(C)(C)C)cc12 | IC50 | - | ≤0.5 µM |
| CC(=O)c1ccc(-c2ccc(C=C3SC(=S)N(c4ccc(C(=O)O)cc4)C3=O)o2)s1 | IC50 | - | ≤1 µM |
| CCc1cc2c(C(=O)NC)c(-c3ccc(F)cc3)oc2cc1N(CCOC)S(C)(=O)=O | IC50 | - | ≤0.5 µM |
| COC(=O)[C@@H]1CCCN1c1nc(Nc2ccc3cn[nH]c3c2)nc(OC)n1 | inhibition | 10 µg/mL | 42% |
| COc1ccc(CCC2(C3CCCC3)CC(=O)C(Oc3ccc(Cl)cc3)C(=O)O2)cc1OC | IC50 | - | 10–50 µM |
| CNC(=O)c1c(-c2ccc(F)cc2)oc2cc(C3CCCN3C(C)=O)c(OC)cc12 | IC50 | - | ≤0.5 µM |
| Cc1cc(C)n2nc(SC3=C(O)CC(CCc4ccc(OCc5ccccc5)cc4)(C4CCCC4)OC3=O)nc2n1 | IC50 | - | <1 µM |
| COCCNc1nc(Nc2ccc3cn[nH]c3c2)nc(OC)n1 | inhibition | 10 µg/mL | 63% |
| O=C(O)CCN1C(=O)C(=Cc2ccc(-c3sccc3Cl)o2)SC1=S | IC50 | - | ≤1 µM |
| CNC(=O)c1c(-c2ccc(F)cc2)oc2cc(-c3ncn[nH]3)c(OC)cc12 | IC50 | - | ≤0.5 µM |
| O=C1OC(CCc2ccc(O)cc2)(C2CCCC2)CC(O)=C1N(c1ccccc1)c1ccccc1 | IC50 | - | 1–10 µM |
| CCOC(=O)C1=CN(N2CCN(c3nc(Nc4ccc5cn[nH]c5c4)nc(OC)n3)CC2)C(SC)N=C1 | inhibition | 1 µg/mL | 11% |
| CNC(=O)c1c(-c2ccc(F)cc2)oc2cc(-c3c(C)noc3C)c(OCCN3CCC(C#N)CC3)cc12 | IC50 | - | ≤0.5 µM |
| COc1ccc(CCC2(C3CCCC3)CC(O)=C(Sc3nnc(C)s3)C(=O)O2)cc1Cl | IC50 | - | <1 µM |
| COc1nc(NCCCN2CCOCC2)nc(Nc2ccc3[nH]ncc3c2)n1 | inhibition | 0.1 µg/mL | 20% |
| O=C1CC(=O)OC(CCc2ccc(OCC3CC3)c(F)c2)(C2CCCC2)C1 | IC50 | - | 1–10 µM |
| CNC(=O)c1c(-c2ccc(F)cc2)oc2cc(-c3c(C)noc3C)c(OCc3nnnn3C)cc12 | IC50 | - | ≤0.5 µM |
| O=C(O)c1ccc(N2C(=O)C(=Cc3ccc(-c4ccc(Cl)c(Cl)c4)o3)SC2=S)cc1 | IC50 | - | ≤1 µM |
| CNC(=O)c1c(-c2ccc(F)cc2)oc2cc(N(CC(F)(F)F)S(C)(=O)=O)c(OC)cc12 | IC50 | - | ≤0.5 µM |
| COc1ccc(-c2ccc(C=C3SC(=S)N(c4ccc(C(=O)O)cc4)C3=O)o2)nn1 | IC50 | - | ≤1 µM |
| CNC(=O)c1c(-c2ccc(F)c(C)c2)oc2ccc(OC)cc12 | IC50 | - | ≤0.5 µM |
| COc1nc(NCCN(C)C)nc(Nc2ccc3[nH]ncc3c2)n1 | inhibition | 10 µg/mL | 46% |

Inhibition is in % at the dose shown (toxicity tests: loss of growth or viability). ICn is the concentration giving n% inhibition. An empty or dashed field is not shown. a–b is a range or a potency band.